PubChem BioAssay AID504761 | Drosophila RNAi Screening Center, 2011

- Assay: 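Insect host genes that dengue virus relies on to spread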 (primary screen)
- Cells: D.Mel-2 cells from Drosophila
- Reagents: long dsRNA against Drosophila genes
- Challenge: infection with dengue virus type 2; dose and infection time not stated
- Read-out: 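Cells stained for dengue envelope protein and imaged; percent of infected cells per well on duplicate plates, ranked by infection, with stained nuclei counted for cell number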
- Direction: infection score: higher = more virus-infected cells
- Rule for the call: 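Very low infection ranking in both replicate wells (chance probability at most 0.065), then a retest showing infection dropped 1.5-fold or more at p below 0.05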
- Meaning of the calls: active = confirmed: knock-down lowers infection; inactive = not picked or not confirmed
The deposit covers about 22,000 reagents; shown is an unselected part of those that have a named target and a result. Over the whole deposit, 116 (0.52%) are marked active. 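Calls depend on retest data that are not deposited; infection was ranked per plate without normalising between plates; the unit of the infection score is not given.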 Further read-outs or replicates are left out here. The record does not give: the amount of reagent, the time to read-out.

After knock-down of Tomosyn [DRSC19365], the screen gave infection score, replicate 1 = 2.72; inactive.
With knock-down of Tomosyn [DRSC19692] the results were infection score, replicate 1 = 3.44; inactive.
Depletion of Tomosyn [DRSC19782] gave: infection score, replicate 1 = 0.56; inactive.
Tomosyn [DRSC19842] scored infection score, replicate 1 = 7.29; inactive.
With knock-down of Tomosyn [DRSC25047] the results were infection score, replicate 1 = 1.68; inactive.
Against CG34168 [DRSC01938], the entry reads infection score, replicate 1 = 19.3; inactive.
Depletion of CG12464 [DRSC06156] came out at: infection score, replicate 1 = 17.9; inactive.
Knock-down of Osi9 (Osiris 9) [DRSC12278] resulted in: infection score, replicate 1 = 2.42; inactive.
Depletion of Osi9 (Osiris 9) [DRSC28928] gave: infection score, replicate 1 = 14.5; inactive.
Against CG31089 [DRSC15934], the values are infection score, replicate 1 = 2.35; inactive.
Cdk12 (Cyclin-dependent kinase 12) [DRSC11836] scored infection score, replicate 1 = 19.5; inactive.
Silencing of Cdk12 (Cyclin-dependent kinase 12) [DRSC23323] resulted in: infection score, replicate 1 = 7.62; inactive.
For Cdk12 (Cyclin-dependent kinase 12) [DRSC29623] the deposit lists infection score, replicate 1 = 39.6; inactive.
Depletion of Set2 (SET domain containing 2) [DRSC19765] gave: infection score, replicate 1 = 1.41; inactive.
Knock-down of Roc1a (Regulator of cullins 1a) [DRSC18483] came out at: infection score, replicate 1 = 6.65; inactive.
mRpL51 (mitochondrial ribosomal protein L51) [DRSC02200] scored infection score, replicate 1 = 21.9; inactive.
For mRpL51 (mitochondrial ribosomal protein L51) [DRSC29908], the entry reads infection score, replicate 1 = 16.6; inactive.
With knock-down of Mkk4 (MAP kinase kinase 4) [DRSC16739], the screen gave infection score, replicate 1 = 27.2; inactive.
For Mkk4 (MAP kinase kinase 4) [DRSC29113] the deposit lists infection score, replicate 1 = 14.6; inactive.
tHMG2 (testis-enriched HMG-box-containing protein 2) [DRSC16182] showed infection score, replicate 1 = 20.1; inactive.
Nepl21 (Neprilysin-like 21) [DRSC14133] showed infection score, replicate 1 = 2.68; inactive.

Copied from the list:
Under “infection score, replicate 1”, mRpL51 (mitochondrial ribosomal protein L51) [DRSC02200] shows 21.9
Under “Outcome”, Mkk4 (MAP kinase kinase 4) [DRSC29113] is entered as inactive
Set2 (SET domain containing 2) [DRSC19765], infection score, replicate 1 = 1.41
